# Source: PubChem BioAssay AID504761 (Drosophila RNAi Screening Center, 2011)
# Test: 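Insect host genes that dengue virus relies on to spread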 (primary screen)
# Cell system: D.Mel-2 cells from Drosophila
# Reagents: long dsRNA against Drosophila genes
# Conditions: infection with dengue virus type 2; dose and infection time not stated
# Measured: 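Cells stained for dengue envelope protein and imaged; percent of infected cells per well on duplicate plates, ranked by infection, with stained nuclei counted for cell number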
# Direction: infection score: higher = more virus-infected cells; cell count: higher = more cells in the well
# Rule for the call: 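Very low infection ranking in both replicate wells (chance probability at most 0.065), then a retest showing infection dropped 1.5-fold or more at p below 0.05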
# Meaning of the calls: active = confirmed: knock-down lowers infection; inactive = not picked or not confirmed
# The deposit covers about 22,000 reagents; this is an unselected part of those with a known target gene and a result. Of all reagents, 116 (0.52%) got an active call. 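Calls depend on retest data that are not deposited; infection was ranked per plate without normalising between plates; the unit of the infection score is not given.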 Raw values vary from plate to plate and are shown uncorrected. Entries without a mark were called inactive. Reagents against one gene are numbered here. Not given: the amount of reagent, the time to read-out.
"infection score, replicate 1","infection score, replicate 2","cell count, replicate 1","cell count, replicate 2",Target gene,dsRNA no.
4.13,5.25,6903,6548,CG17134,1
4.13,7.17,5111,5314,Muc11A,1
13.3,8.16,5283,5098,Muc11A,2
2.88,0.63,902,960,rk,1
1.64,4.1,5735,6273,CG5323,1
3.53,2.91,6096,6079,Ddrgk1,1
5.12,17.5,6723,6323,Ddrgk1,2
2.64,2.1,6243,6101,maf-S,1
0.6,2.37,5522,5104,Trs20,1
10.7,9.38,6461,6333,hui,1
6.98,0.47,1905,424,hui,2
16.4,7.37,5825,6417,CG10702,1
2.07,1.08,6150,5530,CG33453,1
1.56,1.47,6233,5927,sip3,1
3.2,,875,349,sip3,2
0.63,3.42,477,876,CG12105,1
7.57,14,3038,6318,CG12105,2
3.43,14,6096,6658,Vm26Aa,1
0.7,3.65,6310,6570,Vm26Aa,2
2.41,0.33,6546,600,CG7903,1
4,3.48,6770,6302,CG7903,2
1.93,15.3,6822,5565,CG6567,1
7.3,4.06,6599,6775,CG15403,1

2 entries already listed, ordered by “infection score, replicate 2”, descending:
"infection score, replicate 1","infection score, replicate 2","cell count, replicate 1","cell count, replicate 2",Target gene,dsRNA no.
4.13,7.17,5111,5314,Muc11A,1
4.13,5.25,6903,6548,CG17134,1
